According to the supplement of paper PMC3578754:

Assays:
Experiment in all cases: fold change of IC50 against reference virus; higher = more resistant; Cell-culture drug susceptibility tests of virus bearing the protease of each isolate, gathered from many studies.
nelfinavir = compound: Cc1c(O)cccc1C(=O)N[C@@H](CSc1ccccc1)[C@H](O)CN1C[C@H]2CCCC[C@H]2C[C@H]1C(=O)NC(C)(C)C [nelfinavir]
saquinavir = compound: CC(C)(C)NC(=O)[C@@H]1C[C@@H]2CCCC[C@@H]2CN1C[C@@H](O)[C@H](Cc1ccccc1)NC(=O)[C@H](CC(N)=O)NC(=O)c1ccc2ccccc2n1 [saquinavir]
indinavir = compound: CC(C)(C)NC(=O)[C@@H]1CN(Cc2cccnc2)CCN1C[C@@H](O)C[C@@H](Cc1ccccc1)C(=O)N[C@H]1c2ccccc2C[C@H]1O [indinavir]
ritonavir = compound: CC(C)c1nc(CN(C)C(=O)N[C@H](C(=O)N[C@@H](Cc2ccccc2)C[C@H](O)[C@H](Cc2ccccc2)NC(=O)OCc2cncs2)C(C)C)cs1 [ritonavir]

Test System | fold change of IC50 against reference virus (nelfinavir) | fold change of IC50 against reference virus (saquinavir) | fold change of IC50 against reference virus (indinavir) | fold change of IC50 against reference virus (ritonavir)
HIV-1 isolate 1288 (protease changes: L63P, study 129) | 1 | 1 |  | 
HIV-1 isolate 223 (protease changes: L10I M46I G73T V77I L90M, study 82) | 37 | 4.4 | 15.8 | 
HIV-1 isolate 596 (protease changes: L10I V11I I13V G16E E35D L63T I64V C67Y V77I V82F, study 129) | 4 | 1 |  | 
HIV-1 isolate 1340 (protease changes: L10I K20R E35D M36I N37D I54V D60E L63P A71V V77G V82A, study 68) | 10 | 9 |  | 
HIV-1 isolate 1566 (protease changes: M46I R57G I84V, study 5) |  |  |  | 7
HIV-1 isolate 822 (protease changes: L10I L63P A71T I72E V77I I93L, study 137) | 3 | 2 | 1 | 
HIV-1 isolate 926 (protease changes: L10I I15V M36I G48V I54V I62V V82A, study 137) | 30 | 40 | 6 | 
HIV-1 isolate 1521 (protease changes: T12P L24I M46I I54V L63A V82A, study 82) | 6.4 | 0.7 | 4.5 | 
HIV-1 isolate 463 (protease changes: L10I M46I I54V L63Q V82A, study 82) | 3.7 | 0.7 | 2.5 | 
HIV-1 isolate 547 (protease changes: I13V G16E N37C I62V L63S I64M, study 68) | 1 | 1 |  | 
HIV-1 isolate 1281 (protease changes: G48V R57G, study 133) | 3 |  |  | 
HIV-1 isolate 211 (protease changes: I15V L24I E35D M36I N37D R41K F53L I54V L63P A71T V82A R87K, study 68) | 22 | 13 |  | 
HIV-1 isolate 129 (protease changes: R8G L10I R41K M46I L63P I72L G73T V77I L90M I93F, study 68) | 16 |  |  | 
HIV-1 isolate 1515 (protease changes: L10I I15V M36I G48V I54V I62V, study 137) | 9 | 30 | 5 | 
HIV-1 isolate 1594 (protease changes: L10I I13V I15V I62V A71T I93L, study 89) | 1 |  |  | 
HIV-1 isolate 399 (protease changes: R8K R57G V82I, study 133) | 4 |  |  | 
HIV-1 isolate 183 (protease changes: R57G A71V, study 133) | 1 |  |  | 
HIV-1 isolate 429 (protease changes: L10I K20I M36I I54V L63P A71V V82T, study 82) | 23 | 4.8 | 25.2 | 
HIV-1 isolate 1585 (protease changes: R8K M46I R57G, study 133) | 5 |  |  | 
HIV-1 isolate 664 (protease changes: L10I L24I M46L I54V L63P A71V V82A, study 82) | 49.8 | 7.2 | 34.5 | 
HIV-1 isolate 1285 (protease changes: M46L R57G, study 133) | 1 |  |  | 
HIV-1 isolate 356 (protease changes: L10I R41K M46I I64V G73T V77I L90M I93L, study 129) | 37 | 5 |  | 
HIV-1 isolate 104 (protease changes: R57G V82F, study 133) | 2 |  |  | 
HIV-1 isolate 685 (protease changes: L10I G48V I54T L63H A71V V77I V82A, study 80) | 30 | 90 | 86 | 
HIV-1 isolate 435 (protease changes: T12S R41K L63P I72V V77I L90M I93L, study 137) | 13 | 7 | 4 | 

Test System | fold change of IC50 against reference virus (nelfinavir) | fold change of IC50 against reference virus (saquinavir) | fold change of IC50 against reference virus (indinavir) | fold change of IC50 against reference virus (ritonavir)
HIV-1 isolate 393 (protease changes: L10I L24I M46L I54V L63P A71V V82A L90M, study 82) | 27.4 | 4.8 |  | 
HIV-1 isolate 738 (protease changes: M46I R57G I84V, study 133) | 5 |  |  | 
HIV-1 isolate 113 (protease changes: M36I R57K I62V L63P E65D, study 68) | 1 | 1 |  | 
HIV-1 isolate 1170 (protease changes: L10I L24I M46I I54V L63P V82A, study 82) | 33.3 | 3.8 | 25.8 | 
HIV-1 isolate 1362 (protease changes: I54V L63P V82A, study 82) | 16.8 | 1.4 | 20 | 
HIV-1 isolate 424 (protease changes: I64V, study 89) | 1 |  |  | 
HIV-1 isolate 1274 (protease changes: R57G I84V, study 133) | 5 |  |  | 
HIV-1 isolate 1590 (protease changes: M46I R57G, study 133) | 1 |  |  | 
HIV-1 isolate 51 (protease changes: V32I R57G V82A, study 133) | 4 |  |  | 
HIV-1 isolate 1138 (protease changes: L10F R57G I84V, study 133) | 3 |  |  | 
HIV-1 isolate 3 (protease changes: V32I R57G, study 133) | 1 |  |  | 
HIV-1 isolate 1637 (protease changes: L10I I15V R41K K43T M46L F53L I54V L63P A71V I72T V82A L90M I93L, study 68) | 30 | 24 |  | 
HIV-1 isolate 365 (protease changes: R57G L63P, study 133) | 1 |  |  | 
HIV-1 isolate 1035 (protease changes: L10I M46I L63P A71V L90M, study 82) | 3.9 | 1.5 | 9.6 | 
HIV-1 isolate 591 (protease changes: I15V L24I E35D N37E R41K I54V I62V L63P A71T V82A, study 68) | 9 | 3 |  | 
HIV-1 isolate 1329 (protease changes: L10F R57G, study 133) | 2 |  |  | 
HIV-1 isolate 969 (protease changes: L10I K14R I15V N37D F53L A71V G73S V77I L90M, study 137) | 26 | 19 | 10 | 
HIV-1 isolate 542 (protease changes: T12P K14R L24I M46I I54V L63A I64V V82A, study 129) | 7 | 1 |  | 
HIV-1 isolate 1175 (protease changes: L10I L63T V77I V82F, study 82) | 4.1 | 0.3 | 2.4 | 
HIV-1 isolate 1099 (protease changes: L10I E35D R41K I62V L63P A71V I84V L90M I93L, study 137) | 7 | 11 | 1 | 
HIV-1 isolate 586 (protease changes: D30N R57G A71V, study 133) | 7 |  |  | 
HIV-1 isolate 1282 (protease changes: K20I L63P V77I I93L, study 129) | 2 | 1 |  | 
HIV-1 isolate 1192 (protease changes: L10F G48V R57G, study 133) | 3 |  |  | 
HIV-1 isolate 1616 (protease changes: R8Q M46I R57G, study 133) | 5 |  |  | 

Fold change is the IC50 on the isolate divided by the IC50 on a reference virus; 1 = unchanged, higher = more resistant. Changes are given against the subtype B consensus. No active / inactive call. The values were gathered from many studies (numbered anew) with different assays, which the source does not name. Most viruses are clinical isolates; some are laboratory strains or clones with known resistance changes. Isolates with mixed residues are left out; stretches that were not sequenced show no change. Round top values that many isolates share are read here as limits; other very high values and 0.1 may be limits too. The protease changes I3V and N37S, insertions and deletions cannot be read from the source.
